# Screening data, single-dose tests

The values are deposited in ChEMBL (CHEMBL3988442, “University of Dundee, Small-Polar-MMV Screening Library” (2021)).

Each number is a percent effect as filed. The controls that fix the scale are not given in the record; negative values are as filed. The entries come from a sample that favours strong results.

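Whole-cell growth test on Mycobacterium tuberculosis, read after 3 days in glucose-containing 7H9 medium; the read-out is not stated. Compounds at 500 µM. Direction is inferred from retests: higher values go with more growth inhibition. Of about 18,000 compounds tested this way, about 1,400 (7.9%) reached 50% or more in at least one test.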

compound,percent effect
Cc1ccc(CN2CCNC(=O)CC2)c(Br)c1,9.581
CCc1ccc(CN(C)C(=O)CCNC(C)=O)nc1,-5.665
CNC(=O)C1CCCN1Cc1cccc(C(=O)OC)c1 (stereo unspecified),20.66
CC(=O)Nc1ccc(C(=O)NCc2ccncc2)cc1,0.08326
CN(CC(N)=O)C(=O)c1ccc(OC2CCC2)cc1Cl,-2.648
CN1CCN(Cc2ccncc2)C2(CCCCC2)C1,-7.075
CN(CC(N)=O)Cc1ccccc1N1CCCC1,55.75
OCCN(CCO)Cc1cc(F)cc(Br)c1,29.78
CNC(CO)c1ccccc1 (stereo unspecified),-1.956
CCNC(=O)c1cc(-c2ccc(F)cc2)n[nH]1,69.42
CSCC[C@H](N)C(=O)OC(C)(C)C,10.31
CC1CCN(C(CN)c2cccs2)CC1 (stereo unspecified),45.09
COCCC(=O)NCC(O)c1c(Cl)cccc1Cl (stereo unspecified),11.16
Cc1ccnc(NCC2CCN(CCS(C)(=O)=O)C2)c1 (stereo unspecified),1.067
Cc1noc(CSc2ccc(C(=O)N3CCC3)cc2)n1,53.4
CN(C)c1cccc(CN)n1,4.088
CC(=O)N(C)CC(=O)NCc1nnc2ccccn12,-5.451
CCN(CC1CCOC1)C(=O)c1cc(I)c[nH]1 (stereo unspecified),71.11
COCCCOc1ccc2c(c1)OCCO2,63.15
Nc1nccnc1Br,1.056
CN(CCC(N)=O)Cc1ccc(Br)o1,18.41
O=C(NC1CCCCNC1=O)c1cc(Br)c[nH]1 (stereo unspecified),-0.6769
Cc1c(C(=O)N2CCCC2)cnn1-c1ccc(F)cc1,-9.698
CC(Cn1cccn1)NCc1ccncc1 (stereo unspecified),9.77
OC[C@@H]1CCCN1Cc1ccc(F)c2cccnc12,35.05
CC(C)NC(=O)C(C)S(=O)(=O)Cc1ccccc1 (stereo unspecified),22.85
CNCC(=O)N1CCC(Oc2ccc(C)cc2)CC1,43.67
CC1CN(C(=O)NCc2ccc(Br)s2)CC(=O)N1C (stereo unspecified),39.86
Nc1nc(-c2ccc3c(c2)CCCC(=O)N3)cs1,47.58
CC(C)[C@]1(O)CN(Cc2c[nH]cn2)C[C@H]1C,18.59
O=C(NCc1ccnc(N2CCCC2)c1)c1ccsc1,95.73
CC1CN(C)CCN1C(=O)NCc1cccs1 (stereo unspecified),20.19
CNCC(=O)N1CCC(Cc2cccc(C(N)=O)c2)C1 (stereo unspecified),28.26
COc1ccc(C)cc1CCN,58.23
Cc1cc(C)c(CNC(=O)CN2CSCC2=O)c(=O)[nH]1,-3.574
Cc1ccccc1C(=O)N1CCC2(CC1)OCC(C)O2 (stereo unspecified),43.18
CCCNC(=O)Nc1cccc(C(=O)N(C)C)c1,3.859
NCCCn1nc2n(c1=O)CCCC2,8.941
O=C(CC1CCc2ccccc21)NCc1ccncc1 (stereo unspecified),42.83
COc1ccc(C(=O)NC2=NCCS2)cn1,16.09
O=C(c1ccncc1F)N1CCC(c2cc[nH]n2)CC1,-1.97
COC(=O)CSc1nc(N)c2ccsc2n1,74.69
Cc1cc(NC(=O)Cn2ccc(=O)n(C)c2=O)no1,-5.023
Nc1nc(CCCNC(=O)CN2CCCC2)cs1,5.478
CN(C)C(CNC(=O)C1CC1)c1ccsc1 (stereo unspecified),8.235
CCO[C@H]1CN(Cc2ccccc2C#N)C[C@@H]1O,10.8
N#Cc1cccc(NC(=O)CN2CCCCCC2=O)c1,8.566
CC(C)N(C)S(=O)(=O)NCCc1cccs1,56.77
Cc1cc(C(=O)NC2CCC(=O)N(C)C2)c(C)o1 (stereo unspecified),1.283
CC(OC(=O)c1ccc(C(F)(F)F)cc1)C(N)=O (stereo unspecified),67.97
c1cn2c(n1)CCCC2,4.275
Cc1cc(C)cc(NC(=O)NCC2(O)CCNC2)c1 (stereo unspecified),35.19
Cc1cccc(CC(=O)N2CCn3cnnc3C2)c1,58.91
Cc1ccc(CNC(=O)C2CCCN(C(N)=O)C2)s1 (stereo unspecified),45.88
NCCC1CNCCO1 (stereo unspecified),4.063
Cn1cc(C(=O)NCCc2ccccc2)ccc1=O,8.446
NC(=O)CCN1CCCN(Cc2ccccc2F)CC1,24.85
Cc1cc(-n2cccn2)ccc1CO,1.792
COc1ccccc1-c1ncc(CN)s1,-5.427
CCOc1cccc(CNCCO)c1,7.972
Cn1cc(C#N)cc1C(=O)NCC1CNCCO1 (stereo unspecified),6.627
O=c1cccnn1CC(O)COCc1ccccc1F (stereo unspecified),31.37
Brc1nnnn1-c1ccc2c(c1)OCCO2,6.426
CC(NC(=O)CCNC(=O)c1ccco1)c1cccs1 (stereo unspecified),52.24
NC(CC(=O)N1CCOCC1)c1ccccc1 (stereo unspecified),-4.178
COC1(CO)CCOC1 (stereo unspecified),9.944
Cc1cc(NC(=O)CNC(C)c2ccncc2)n(C)n1 (stereo unspecified),-5.212
CCS(=O)(=O)NCCNc1ccccc1,43.38
CCOC(=O)CN1C(=O)c2ccc(Br)cc2C1=O,-4.452
Cc1cc(C(=O)N(C)CC(C)(CO)CO)cc(C)c1F,28.96
CCOCCC(=O)NCc1c(C)ncc2c1CCNC2,-26.52
COc1cc(CCN)cc(OC)c1O,32.83
CCOC(=O)CSCN1C(=O)c2ccccc2C1=O,-7.695